Measured values from several laboratories, pooled; numbers as filed in NIAID ChemDB.

Shared fields: tests in culture; organism: Cowpox virus; endpoint: EC50

Lines come from different laboratories, so protocols vary.

structure	strain or isolate	cell line	value
CC(C)(C)C(=O)OCOP(=O)(COCCn1cnc2c(N)ncnc21)OCOC(=O)C(C)(C)C		VERO	75.5 µg/mL
Cc1cc(C)nc(NS(=O)(=O)c2ccc(N=C3C(=O)Nc4ccccc43)cc2)n1		HFF	128 µM
Nc1ncc2c(ncn2COC(CO)CO)n1	Brighton	C1271	3.5 µM
Nc1nccc2c1ncn2[C@@H]1C[C@H](CO)[C@@H](O)[C@H]1O		VERO	>100 µg/mL
O=c1[nH]c(=O)n([C@H]2C[C@H](O)[C@@H](CO)O2)cc1I	Brighton	VERO	14 µM
Cc1cc(C)nc(NS(=O)(=O)c2ccc(N=C3C(=O)N(C(=O)c4ccccc4)c4ccccc43)cc2)n1		HFF	86.5 µM
Nc1nc(=O)n([C@@H]2C=C(CO)[C@@H](O)[C@H]2O)cc1I	Brighton		8.7 µg/mL
Nc1nc(=O)n([C@@H]2C=C(CO)[C@@H](O)[C@H]2O)cc1F	CPX	VERO	1.35 µg/mL
Nc1nc(=O)n([C@@H]2O[C@H](CO)[C@@H](O)[C@@H]2F)cc1I	Brighton	C1271	0.8 µM
CC(=O)N1C(=O)C(=Nc2ccc(S(=O)(=O)Nc3nc(C)cc(C)n3)cc2)c2ccccc21		HFF	33 µM
CCCCCCCCCCCCCCCCCCOCCOP(=O)(O)COCCn1cnc2c(=O)[nH]c(N)nc21	Brighton	HFF	0.029 µM
Nc1ncnc2c1ncn2[C@@H]1C[C@H](NC=O)[C@@H](O)[C@H]1O		HFF	>100 µg/mL
Nc1nc(=O)n([C@@H]2C=C(CO)[C@@H](O)[C@H]2O)cc1Cl	Brighton		21.1 µg/mL
Nc1ccn(C[C@H]2COP(=O)(O)CO2)c(=O)n1		VERO	52 µg/mL
Nc1nc2c(ncn2[C@@H]2O[C@H](CO)[C@@H](O)[C@@H]2O)c(=O)[nH]1	Brighton	C1271	1.2 µM
Nc1ccn(C[C@@H](CO)OCP(=O)(O)O)c(=O)n1		VERO	13 µg/mL
Cc1cn([C@H]2C[C@H](O)[C@]3(CO)C[C@H]23)c(=O)[nH]c1=O	Brighton	HFF	1.5 µg/mL

A second listing of 2 rows from above:

structure,strain or isolate,cell line,value
O=c1[nH]c(=O)n([C@H]2C[C@H](O)[C@@H](CO)O2)cc1I,Brighton,VERO,14 µM
CC(C)(C)C(=O)OCOP(=O)(COCCn1cnc2c(N)ncnc21)OCOC(=O)C(C)(C)C,,VERO,75.5 µg/mL

ECn is the concentration giving n% inhibition of infection, replication or growth. An empty or dashed field is not shown.